The data set deals with P. falciparum female gametocytes. Kind of data set: P. falciparum female gametogenesis assay (Pf FGAA).
The mark [1] stands for this setting: unified cytotox / Pf FGAA IC50, red: <10-fold selectivity, green: >10-fold.
The mark [2] stands for this setting: unified cytotox / Pf FGAA IC50, <10-fold selectivity red, >10-fold green.
Where [3] appears, read: unified cytotox / IC50, <10-fold red, >10-fold green.

With `O=c1c(NCCCN(Cc2ccc(F)cc2)c2ccccn2)c(NCc2cccnc2)c1=O` [TCMDC-142311], under setting [1], the “Assay tox ratio Pf FGAA” value turned out to be 278.57.

In the case of `CCc1cc2c(Sc3nnc(N)s3)ncnc2s1` [TCMDC-123993], the “Assay tox ratio Pf FGAA” value under setting [2] was 44.35.

With `CCN(CCNS(C)(=O)=O)c1ccc(N)c(C)c1.O.O=S(=O)(O)O` [TCMDC-125836], under setting [2], the “Assay tox ratio Pf FGAA” value worked out at 22.91. On the same count and under the same terms, to `Cc1ccc(C)c2sc(N3CCN(C(=O)c4ccc([N+](=O)[O-])o4)CC3)nc12` [TCMDC-124315] belongs 33.48; to `FC(F)(F)c1cnc(Sc2nnc(-c3ccncc3)o2)c(Cl)c1` [TCMDC-123767], 615.29. In the case of `N#CC(c1ccc(Br)cc1)c1ccc2c(C(F)(F)F)cc(C(F)(F)F)nc2n1` (centres unmarked) [TCMDC-123754], the “Assay tox ratio Pf FGAA” value under setting [2] came to 2.01. In the case of `O=C(O)C(F)(F)F.O=c1[nH]ccc2nc(N[C@@H]3CCNC3)nc(Nc3cc(Cl)cc(Cl)c3)c12` [TCMDC-135052], the “Assay tox ratio Pf FGAA” value under setting [2] worked out at 6.49.

With `CCOc1cc2ccccc2cc1CNCCCCCCNCc1cc2ccccc2cc1OCC.CS(=O)(=O)O` [TCMDC-137940], under setting [2], the “Assay tox ratio Pf FGAA” value turned out to be 4.71.

For the compound `COc1cc2nc(N3CCC(CNC(=O)c4ccc(-c5ccc(Cl)cc5)cc4)CC3)nc(N)c2cc1OC` [TCMDC-138718], under setting [1], the “Assay tox ratio Pf FGAA” value stood at 4.74.

`CC(C)(C)c1ccc(CNCCOc2ccc(Nc3nnc(-c4ccc(-c5ncc[nH]5)cc4)o3)c3ccccc23)cc1.O=C(O)C(F)(F)F` [TCMDC-138667]: under setting [1], the “Assay tox ratio Pf FGAA” value is given as 9.58. In the case of `CC(=O)Nc1ccc2[nH]cc(C3CCN(CC4CCC(NC(=O)/C=C/c5ccc(Cl)c(Cl)c5)CC4)CC3)c2n1` (centres unmarked) [TCMDC-140114], the “Assay tox ratio Pf FGAA” value under setting [1] is 7.76. Consider `COC(=O)c1ccc(-c2ccc(C(=O)NCC3CCN(c4nc(N)c5cc(OC)c(OC)cc5n4)CC3)cc2)cc1` [TCMDC-138721], for which the “Assay tox ratio Pf FGAA” value under setting [1] is on record as 6.71. Still for that read-out and setting: the figure for `O=C(CCC1CCCC1)N(Cc1ccc(-c2ccc(CNCCc3ccccc3)cc2)cc1)C1CCCNC1.O=C(O)C(F)(F)F` (centres unmarked) [TCMDC-141444] is 2.62.

For `CN(CCc1ccccc1)c1ncc(-c2cccc(CNCCC3CCCN3C)c2)cn1` (centres unmarked) [TCMDC-133143], under setting [2], the “Assay tox ratio Pf FGAA” value was determined as 2.13. On to `COc1cc2nc(N3CCC(CNC(=O)c4ccc(-c5ccc(C(F)(F)F)cc5)cc4)CC3)nc(N)c2cc1OC` [TCMDC-138716], for which the “Assay tox ratio Pf FGAA” value under setting [1] is recorded as 5.79.

For `CN1CCN(c2cc3c(cc2Cl)CCN3C(=O)Nc2ccc(NC(=O)c3ccc(C(F)(F)F)cc3)cc2)CC1.Cl` [TCMDC-139270], the “Assay tox ratio Pf FGAA” value under setting [1] turned out to be 5.75. In the case of `Clc1nc(Cl)c2c(ccn2Cc2ccccc2)n1` [TCMDC-137801], the “Assay tox ratio Pf FGAA” value under setting [2] is 68.59. For the compound `CC(C)(C)c1ccc(CNC(=O)/C=C/c2ccc(CNC3CCNCC3)cc2)cc1` [TCMDC-140773], the “Assay tox ratio Pf FGAA” value under setting [1] is 4.94. In the case of `O=C(NCC1CCN(Cc2cccc(C(F)(F)F)c2)C1)c1cc(-c2cccc(F)c2)cs1.O=C(O)C(F)(F)F` (centres unmarked) [TCMDC-134484], the “Assay tox ratio Pf FGAA” value under setting [2] is reported as 8.35. Consider `COc1cc(CNCCCCCCNCc2cc(OC)c3ccccc3c2OC)c(OC)c2ccccc12.CS(=O)(=O)O` [TCMDC-137502], for which the “Assay tox ratio Pf FGAA” value under setting [2] is on record as 2.20. With `Br.Oc1ccc(CCNCCCCCCNCCc2ccc(-c3ccccc3)cc2)cc1O` [TCMDC-131268], the “Assay tox ratio Pf FGAA” value under setting [2] turned out to be 1.21. `CCc1c(CCNC/C=C/C=C/CNCCc2ccc(OC)c(OC)c2CC)ccc(OC)c1OC.Cl` [TCMDC-132061]: the “Assay tox ratio Pf FGAA” value under setting [2] is listed as 1.82. On to `CC(C)(CN)c1cc(-c2ccc(Cl)c(O)c2)c(-c2ccncc2)o1.Cl` [TCMDC-141334], for which the “Assay tox ratio Pf FGAA” value under setting [3] amounted to 36.75. As for `O=C(Nc1cc(C(F)(F)F)cc(C(F)(F)F)c1)Nc1ccc(Cl)c(Cl)c1` [TCMDC-125592], under setting [2], the “Assay tox ratio Pf FGAA” value was 2.15. In the case of `CCCc1cc(=O)[nH]c(-n2nc(C)cc2NC(=O)CC(c2ccccc2)c2ccccc2)n1` [TCMDC-124940], the “Assay tox ratio Pf FGAA” value under setting [2] came out at 76.75. Consider `CC(=O)Nc1ccc2[nH]cc(C3CCN(CC4CCN(C(=O)/C=C/c5ccc(Cl)c(Cl)c5)CC4)CC3)c2n1` [TCMDC-140112], for which, under setting [1], the “Assay tox ratio Pf FGAA” value was found to be 9.15. On to `Nc1cc2c(C3CCN(CC4CCN(C(=O)/C=C/c5ccc(Cl)c(Cl)c5)CC4)CC3)c[nH]c2cn1` [TCMDC-140133], for which, under setting [1], the “Assay tox ratio Pf FGAA” value is given as 3.16. On to `Clc1ccc(/N=C(/NCCCCCCCN/C(=N\c2ccc(Cl)cc2)Nc2ccc(Cl)cc2)Nc2ccc(Cl)cc2)cc1` [TCMDC-137529], for which the “Assay tox ratio Pf FGAA” value under setting [2] amounted to 3.42. For the compound `COc1ccc(-c2ccccc2)cc1NC(=S)NC1CCC(CN2CCC(c3c[nH]c4ccccc34)CC2)CC1` (centres unmarked) [TCMDC-140182], the “Assay tox ratio Pf FGAA” value under setting [1] is 3.33. `Cc1ccc2c(c1)c(C1CCN(C(=O)c3ccc([N+](=O)[O-])o3)CC1)cn2C` [TCMDC-124787]: the “Assay tox ratio Pf FGAA” value under setting [2] turned out to be 13.60. For `Cc1cccc2nc(-c3ccc(-c4ccc(CNCc5ccc(CN)cc5)cc4)cc3)[nH]c12.O=C(O)C(F)(F)F` [TCMDC-132813], under setting [2], the “Assay tox ratio Pf FGAA” value came out at 8.37.

Consider `Clc1ccc(-c2csc3ncnc(Cl)c23)cc1` [TCMDC-123811], for which, under setting [2], the “Assay tox ratio Pf FGAA” value worked out at 60.12. For `CCc1ccc(C2CCN(CCCCNC(=O)c3ccc(NC(=O)c4ccc(Cl)cc4)cc3)CC2)c(OCCO)c1` [TCMDC-138703], the “Assay tox ratio Pf FGAA” value under setting [1] amounted to 2.38. `CN1CCCC1CCNc1ncc2c(-c3ccc(NC(=O)Nc4cc(C(F)(F)F)ccc4F)c(F)c3)nn(C)c2n1.O=C(O)C(F)(F)F` (centres unmarked) [TCMDC-141610]: the “Assay tox ratio Pf FGAA” value under setting [1] was found to be 3.14. On to `Clc1ccc(Nc2nc3ccc(Cl)cc3nc2Nc2ccc(Cl)cc2)cc1` [TCMDC-137772], for which the “Assay tox ratio Pf FGAA” value under setting [2] is 4.11. `CC(C)(C)c1ccc(CN2CCC(CNC(=O)c3cc(-c4cccc(F)c4)cs3)C2)cc1.O=C(O)C(F)(F)F` (centres unmarked) [TCMDC-134444]: the “Assay tox ratio Pf FGAA” value under setting [2] was 5.01. Consider `Cc1ccnc(NC(c2cccc(Cl)c2Cl)c2ccc3cccnc3c2O)c1` (centres unmarked) [TCMDC-123997], for which the “Assay tox ratio Pf FGAA” value under setting [3] came out at 12.74. On to `COc1cc2nc(N3CCC(CNC(=O)c4ccc(-c5ccc(-c6noc(C)n6)cc5C)cc4)CC3)nc(N)c2cc1OC` [TCMDC-138155], for which the “Assay tox ratio Pf FGAA” value under setting [2] was determined as 4.54. Turning to `CC(Cc1ccc(NC(=O)c2ccc(CC(C)NCc3ccc(Cl)cc3)cc2)cc1)NCCc1cccc(Cl)c1` (centres unmarked) [TCMDC-139810], the “Assay tox ratio Pf FGAA” value under setting [1] is listed as 4.67. In the case of `CC(C)(CN)c1nc(-c2ccc(Br)c(O)c2)c(-c2ccncc2)[nH]1.Cl` [TCMDC-140680], under setting [3], the “Assay tox ratio Pf FGAA” value turned out to be 55.36.

With `OC1CCN(c2cc(-c3ccccn3)nc(-c3ccccn3)n2)CC1` [TCMDC-123786], the “Assay tox ratio Pf FGAA” value under setting [2] came out at 9.15. Same read-out and setting: to `CC(C)(C)c1cc(NC2CC2)nc(-c2ccccn2)n1` [TCMDC-125826] belongs 856.97. On to `O=C(NCC1CCN(CCN2CCC(c3cn(CCO)c4ccccc34)CC2)CC1)c1ccc(-c2ccc(C(F)(F)F)cc2)cc1` [TCMDC-138856], for which the “Assay tox ratio Pf FGAA” value under setting [1] was found to be 1.83.

In the case of `CN1CCC(NCc2cccc(-c3ccc(S(=O)(=O)NCc4ccccc4)c(F)c3)c2)CC1.O=C(O)C(F)(F)F` [TCMDC-132219], under setting [2], the “Assay tox ratio Pf FGAA” value turned out to be 1.95.

As to `CN1CCc2cc(NS(=O)(=O)c3ccc(-c4ccc(Cl)cc4)cc3)c(OCCCN3CCCCC3)cc2CC1.Cl` [TCMDC-141754], the “Assay tox ratio Pf FGAA” value under setting [1] turned out to be 2.30.

In the case of `CCn1c(-c2nonc2N)nc2c(-c3cccc(NC(=O)Nc4ccc(Cl)cc4)c3)ncc(OCCCN)c21.O=C(O)C(F)(F)F` [TCMDC-136152], the “Assay tox ratio Pf FGAA” value under setting [2] came out at 6.43. Consider `N=C(N)Nc1nc(-c2ccc(NCc3ccc(CNc4cccc(-c5csc(NC(=N)N)n5)c4)cc3)cc2)cs1` [TCMDC-140699], for which the “Assay tox ratio Pf FGAA” value under setting [1] turned out to be 5.34.

Regarding `COc1ccc2nc(N=C3NC4(c5ccccc5)NC(=Nc5nc6ccc(OC)cc6[nH]5)NC4(c4ccccc4)N3)[nH]c2c1.O=C(O)C(F)(F)F` (centres unmarked) [TCMDC-139632], the “Assay tox ratio Pf FGAA” value under setting [1] amounted to 529.58.

For `Cc1ccc(Cn2ncc(N3CCCNCC3)c(Cl)c2=O)cc1NC(=O)Nc1ccc(-c2ccccc2)cc1` [TCMDC-141924], the “Assay tox ratio Pf FGAA” value under setting [1] was 4.53.

As for `CN(C)CCOc1ccc(NC(=O)NC(C)(C)c2nc(-c3ccc(Cl)c(O)c3)c(-c3ccncc3)[nH]2)cc1.Cl` [TCMDC-140744], the “Assay tox ratio Pf FGAA” value under setting [1] is 19.59. Turning to `OCCN1CCN(c2ccc(Nc3ccnc4cc5ccccc5cc34)cc2)CC1` [TCMDC-123915], the “Assay tox ratio Pf FGAA” value under setting [2] was 1.63.

Turning to `Cc1cccc2nc(-c3ccc(-c4ccc(CNCCN5CCNCC5)cc4)s3)[nH]c12.O=C(O)C(F)(F)F` [TCMDC-132870], under setting [2], the “Assay tox ratio Pf FGAA” value amounted to 9.35. For `COc1ccc(NC(=O)c2ccc(OCCCCCCCOc3ccc(C(=O)Nc4ccc(OC)c(N5CCN(C)CC5)c4)cc3)cc2)cc1N1CCN(C)CC1.O=C(O)C(=O)O` [TCMDC-139007], under setting [1], the “Assay tox ratio Pf FGAA” value is 3.14. With `O=C(Nc1ccc(Cl)cc1)c1cc(Cl)cc2nc(C(F)(F)F)[nH]c12` [TCMDC-141586], under setting [3], the “Assay tox ratio Pf FGAA” value was determined as 1.43. As to `O=C(NCCCCN1CCC(c2ccc3c(c2OCCN2CCCC2)CCCC3)CC1)c1ccc(-c2ccc(C(F)(F)F)cc2)cc1` [TCMDC-138768], under setting [1], the “Assay tox ratio Pf FGAA” value amounted to 2.72.

As to `NCCCNc1nc(Nc2ccc(C(F)(F)F)cc2F)c2c(=O)[nH]ccc2n1.O=C(O)C(F)(F)F` [TCMDC-135056], under setting [2], the “Assay tox ratio Pf FGAA” value worked out at 5.83. The same measure, in the same setting: the figure for `O=C(O)C(F)(F)F.O=S(=O)(NCCN1CCCC1)c1ccc(-c2ccc(CNC3Cc4ccccc4C3)cc2)s1` [TCMDC-132234] is 2.56; for `CC1Cc2ccccc2N1S(=O)(=O)c1cccc(C(=O)Nc2nc(-c3ccccn3)cs2)c1` (centres unmarked) [TCMDC-124559] it is 146.27. As for `CC1(CCN2CCC(c3c[nH]c4cnccc34)CC2)CCCc2c(Br)cccc2C1=O.Cl` (centres unmarked) [TCMDC-141171], the “Assay tox ratio Pf FGAA” value under setting [1] is listed as 3.03. Still for that read-out and setting: to `COc1cccc(CCNC(C)Cc2ccc(OCCCCOc3ccccc3)cc2)c1` (centres unmarked) [TCMDC-140020] belongs 0.97. Take `COc1c(CNCCCCCCNCc2c(OC)c(OC)c3ccccc3c2OC)c(OC)c2ccccc2c1OC.CS(=O)(=O)O` [TCMDC-137837]: the “Assay tox ratio Pf FGAA” value under setting [2] was 1.20. As to `CN(/N=C/C=C/c1ccc(Cl)cc1)c1nc(NCCc2ccc(O)cc2)nc(N2CCNCC2)n1` [TCMDC-138546], under setting [2], the “Assay tox ratio Pf FGAA” value stood at 6.73.

The values above are taken from paper PMC6753678, “Fueling Open Innovation for Malaria Transmission-Blocking Drugs: Hundreds of Molecules Targeting Early Parasite Mosquito Stages” (Frontiers in Microbiology, 2019).
